US10485854B2, “Method of reducing biofilms” (Lysando AG, priority 2010, dated 2019)

Columns and labels:
P. aeruginosa PAO1p = assay type: cell-based, Pseudomonas aeruginosa; conditions: no endolysin
P. aeruginosa Br667 = assay type: cell-based, Pseudomonas aeruginosa; conditions: 0.5 mM EDTA, no endolysin
[1] = tested on: Salmonella typhimurium LT2; assay type: cell-based; conditions: 0.5 mM EDTA, no endolysin
[2] = tested on: Burkholderia pseudomallei; assay type: cell-based; conditions: 0.5 mM EDTA, no endolysin
[3] = tested on: P. aeruginosa PAO1p cells; assay: Antibacterial activity, 1 hour incubation with 100 μg/ml protein, residual colony count; conditions: exponentially growing cells, undialyzed protein 100 μg/ml, room temperature (Table 6)

O=C([O-])CN(CCN(CC(=O)[O-])CC(=O)O)CC(=O)O.[Na+].[Na+] [EDTA, reference compound]
antibacterial activity as the relative inactivation in logarithmic units (log10N0/Ni) (P. aeruginosa PAO1p; 0.5 mM EDTA, 30 minutes (Table 10)): 0.146 +/− 0.002 logarithmic units
antibacterial activity as the relative inactivation in logarithmic units (log10N0/Ni) (P. aeruginosa PAO1p; 0.5 mM EDTA, 30 minutes (Table 12)): 0.330 +/− 0.146 logarithmic units
antibacterial activity as the relative inactivation in logarithmic units (log10N0/Ni) (P. aeruginosa PAO1p; 0.5 mM EDTA, 30 minutes (Table 15)): 0.130 +/− 0.023 logarithmic units
antibacterial activity as the relative inactivation in logarithmic units (log10N0/Ni) (P. aeruginosa PAO1p; 0.05 mM EDTA-Na2, 30 minutes (Table 17)): 0.028 +/− 0.008 logarithmic units
antibacterial activity as the relative inactivation in logarithmic units (log10N0/Ni) (P. aeruginosa PAO1p; 0.5 mM EDTA-Na2, 30 minutes (Table 17)): 0.130 +/− 0.023 logarithmic units
antibacterial activity as the relative inactivation in logarithmic units (log10N0/Ni) (P. aeruginosa PAO1p; 10 mM EDTA-Na2, 30 minutes (Table 17)): 1.827 +/− 0.052 logarithmic units
antibacterial activity as the relative inactivation in logarithmic units (log10N0/Ni) (P. aeruginosa Br667; 30 minutes (Table 10)): 0.223 +/− 0.038 logarithmic units
antibacterial activity as the relative inactivation in logarithmic units (log10N0/Ni) (P. aeruginosa Br667; 30 minutes (Table 12)): 0.003 +/− 0.051 logarithmic units
antibacterial activity as the relative inactivation in logarithmic units (log10N0/Ni) (P. aeruginosa Br667; 30 minutes (Table 15)): 0.031 +/− 0.023 logarithmic units
antibacterial activity as the relative inactivation in logarithmic units (log10N0/Ni) ([1]; 30 minutes (Table 10)): 0.104 +/− 0.049 logarithmic units
antibacterial activity as the relative inactivation in logarithmic units (log10N0/Ni) ([1]; 30 minutes (Table 15)): 0.054 +/− 0.048 logarithmic units
antibacterial activity as the relative inactivation in logarithmic units (log10N0/Ni) ([2]; 30 minutes (Table 12)): 0.206 +/− 0.151 logarithmic units
antibacterial activity as the relative inactivation in logarithmic units (log10N0/Ni) ([2]; 30 minutes (Table 15)): 0.220 +/− 0.081 logarithmic units

phiKZgp144: unmodified modular endolysin of Pseudomonas aeruginosa phage φKZ, SEQ ID NO: 1 [reference compound]
antibacterial activity in logarithmic units (log10N0/Ni) [3]: 0.00 ± 0.06 log

B1: ELgp188: unmodified modular endolysin of Pseudomonas aeruginosa phage EL, SEQ ID NO: 2 (protein)
chain: MNFRTKNGYRDLQALVKELGLYTGQIDGVWGKGTSSSTETLLRGYAEVVGKNTGGIGLPTTSDASGYNVITALQRNLAFLGLYSLTVDGIWGNGTLSGLDKAFEVYKERYRTPTYDIAWSGKVSPAFTAKVKDWCGVHVPNHRAPHWLMACMAFETGQTFSPSIKNAAGSEAYGLIQFMSPAANDLNVPLSVIRSMDQLTQLDLVFKYFEMWMKRGKRYTQLEDFYLTIFHPASVGKKADEVLFLQGSKAYLQNKGFDVDKDGKITLGEISSTLYTTYYKGLLPENRHVISY
modifications: ELgp188
antibacterial activity in logarithmic units (log10N0/Ni) [3]: 0.05 ± 0.06 log

B2: (POLY)^2-gp188: fusion protein SEQ ID NO: 40: endolysin SEQ ID NO: 2 with peptide SEQ ID NO: 21 (protein)
chain: MGSKRKKRKKRKRSKRKKRKKRKNFRTKNGYRDLQALVKELGLYTGQIDGVWGKGTSSSTETLLRGYAEVVGKNTGGIGLPTTSDASGYNVITALQRNLAFLGLYSLTVDGIWGNGTLSGLDKAFEVYKERYRTPTYDIAWSGKVSPAFTAKVKDWCGVHVPNHRAPHWLMACMAFETGQTFSPSIKNAAGSEAYGLIQFMSPAANDLNVPLSVIRSMDQLTQLDLVFKYFEMWMKRGKRYTQLEDFYLTIFHPASVGKKADEVLFLQGSKAYLQNKGFDVDKDGKITLGEISSTLYTTYYKGLLPENRHVISY
modifications: (POLY)2-gp188
antibacterial activity in logarithmic units (log10N0/Ni) [3]: 2.0 ± 0.2 log

Read-outs that look alike come from different tables or passages of the source.
